Data reported in patent US7772180B2, “Hepatitis C virus inhibitors” (Bristol-Myers Squibb Company, priority 2006, dated 2010).

Amino acid sequences for entries named in this document (tags omitted). A change or cut given only in a name is not applied to a line headed by its entry. Residues count along the entry.
UniProt P27958, 1027-1657 limits assumed, stated change not applied: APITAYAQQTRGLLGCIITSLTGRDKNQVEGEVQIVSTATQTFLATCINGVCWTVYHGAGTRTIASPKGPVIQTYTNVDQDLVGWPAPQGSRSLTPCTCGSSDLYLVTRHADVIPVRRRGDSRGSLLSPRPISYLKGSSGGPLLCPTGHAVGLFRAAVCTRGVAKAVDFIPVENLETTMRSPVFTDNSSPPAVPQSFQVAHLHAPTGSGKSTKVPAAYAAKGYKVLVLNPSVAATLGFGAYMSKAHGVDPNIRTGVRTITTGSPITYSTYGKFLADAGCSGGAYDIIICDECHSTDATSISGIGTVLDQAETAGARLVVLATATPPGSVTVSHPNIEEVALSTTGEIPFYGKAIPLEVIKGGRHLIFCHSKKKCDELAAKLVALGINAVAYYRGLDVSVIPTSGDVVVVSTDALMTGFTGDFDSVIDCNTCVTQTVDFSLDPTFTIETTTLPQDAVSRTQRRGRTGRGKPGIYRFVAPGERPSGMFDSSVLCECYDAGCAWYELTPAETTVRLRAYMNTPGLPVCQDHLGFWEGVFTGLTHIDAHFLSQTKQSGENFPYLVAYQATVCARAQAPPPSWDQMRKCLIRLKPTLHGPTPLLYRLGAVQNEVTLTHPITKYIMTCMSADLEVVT

Assays:
[1] = biological target: HCV NS3/4A protease complex, BMS strain (UniProt P27958, species not given/STRAIN_BMS); test: FRET peptide assay to monitor HCV NS3/4A proteolytic activity (BMS strain); type: biochemical, Hepatitis C virus (genotype 1a); conditions: read-out: HCV Protease (IC50); NS3/4A BMS strain; activity range class
Text: HCV NS3 protease complexes, derived from the BMS strain, H77 strain or J4L6S strain, were generated, as described below. These purified recombinant proteins were generated for use in a homogeneous assay (see below) to provide an indication of how effective compounds of the present disclosure would be in inhibiting HCV NS3 proteolytic activity.
Serum from an HCV-infected patient was obtained from Dr. T. Wright, San Francisco Hospital. […]
In order to monitor HCV NS3/4A protease activity, an NS3/4A peptide substrate was used. […] The peptide also contains a fluorescence donor, EDANS, near one end of the peptide and an acceptor, DABCYL, near the other end. The fluorescence of the peptide is quenched by […] resonance energy transfer (RET) between the donor and the acceptor, but as the NS3 protease cleaves the peptide the products are released from RET quenching and the fluorescence of the donor becomes apparent.
The peptide substrate was incubated with one of the three recombinant NS3/4A protease complexes, in the absence or presence of a compound of the present disclosure. The inhibitory effects of a compound were determined by monitoring the formation of fluorescent reaction product in real time using a Cytofluor Series 4000. […]

[2] = test system: HCV replicon (strain 1b) in HUH-7 cells; test: HCV replicon FRET assay; type: cell-based, Hepatitis C virus; conditions: read-out: HCV Pro Replicon (EC50); HCV replicon cell assay; activity range class
Text: An HCV replicon whole cell system was established as described by Lohmann V, Korner F, Koch J, Herian U, Theilmann L, Bartenschlager R., Science 285(5424): 110-3 (1999). This system enabled us to evaluate the effects of our HCV Protease compounds on HCV RNA replication. Briefly, using the HCV strain 1b sequence described in the Lohmann paper (Assession number: AJ238799), an HCV cDNA was synthesized by Operon Technologies, Inc. (Alameda, Calif.), and the full-length replicon was then assembled in plasmid pGem9zf(+) (Promega, Madison, Wis.) using standard molecular biology techniques. […]
The HCV replicon FRET assay was developed to monitor the inhibitory effects of compounds described in the disclosure on HCV viral replication. […] After 4 days, cells were first assessed for cytotoxicity using alamar Blue (Trek Diagnotstic Systems) for a CC50 reading. The toxicity of compound (CC50) was determined by adding 1/10th volume of alamarBlue to the media incubating the cells. After 4 hours, the fluorescence signal from each well was read, with an excitation wavelength at 530 nm and an emission wavelength of 580 nm, using the Cytofluor Series 4000 (Perspective Biosystems). […]

C=C[C@@H]1C[C@]1(NC(=O)[C@@H]1C[C@@H](Oc2ncc(OC)c3ccc(Cl)cc23)CN1C(=O)C(Nc1cccc(F)c1)C(C)(C)C)C(=O)NS(=O)(=O)C1CC1 (some centres unmarked)
IC50 [1]: 0.6 to 20 nM | EC50 [2]: 3 to 100 nM
